Compound potency records, mixed from different reports. Data source: NIAID ChemDB in PubChem.

All rows: tests in culture; species: Poliovirus; read-out: inhibition

Neighbouring rows are from separate reports. Inhibition is in % at the dose shown (toxicity tests: loss of growth or viability).

Brc1ccc(C2=Cc3ccccc3OC2)cc1 ; strain: IA (TYPE 2) ; cell line: HEP-2 ; tested at: 10 µM ; value: 10%
CC(C)(O)c1ccc2c(c1)Sc1ccccc1O2 ; strain: TYPE 3 ; cell line: BSC-1 ; tested at: 0.4 µg/mL ; value: 14%
Clc1ccc2c(c1)C=C(c1ccccc1)CO2 ; strain: TYPE 2 ; cell line: HEP-2 ; tested at: 10 µM ; value: 95%
CC(C)/C=C/[C@@H](COS(=O)(=O)O)[C@H]1CC[C@H]2[C@@H]3CC[C@@H]4[C@H](O)[C@H](OS(=O)(=O)O)CC[C@]4(C)[C@H]3[C@@H](O)C[C@]12C ; strain: SABIN (TYPE 3) ; cell line: VERO ; tested at: 5 µg/mL ; value: 10%
CC(=O)c1ccc2c(c1)Sc1cc(C(C)=O)ccc1O2 ; strain: TYPE 3 ; cell line: BSC-1 ; tested at: 0.4 µg/mL ; value: 10%
CC(C)=CCC[C@@H](COS(=O)(=O)O)C1CCC2C3CC[C@H]4C[C@H](OS(=O)(=O)O)[C@@H](O)CC4(C)C3CCC21C ; strain: TYPE 3 ; cell line: VERO ; tested at: 40 µg/mL ; value: 18%
C1=C(c2ccccc2)COc2ccccc21 ; strain: TYPE 2 ; cell line: HEP-2 ; tested at: 10 µM ; value: 100%
C/C(=N\O)c1ccc2c(c1)Sc1ccccc1S2 ; strain: TYPE 3 ; cell line: BSC-1 ; tested at: 0.4 µg/mL ; value: 18%
COc1cc(C(=O)Oc2c(-c3ccc(Cl)c(Cl)c3)oc3ccccc3c2=O)cc(OC)c1O ; strain: TYPE 2 ; cell line: HeLa ; tested at: 1.56 µM ; value: 15%
CC(O)c1ccc2c(c1)S(=O)c1ccccc1O2 ; strain: TYPE 3 ; cell line: BSC-1 ; tested at: 10 µg/mL ; value: 15%
C=C(CC[C@@H](COS(=O)(=O)O)[C@H]1CC[C@H]2[C@@H]3CC[C@@H]4[C@H](O)[C@H](OS(=O)(=O)O)CC[C@]4(C)[C@H]3[C@@H](O)C[C@]12C)C(C)C ; strain: SABIN (TYPE 3) ; cell line: VERO ; tested at: 5 µg/mL ; value: 19%
CC(O)c1ccc2c(c1)Sc1ccccc1S2 ; strain: TYPE 3 ; cell line: BSC-1 ; tested at: 0.4 µg/mL ; value: 12%
O=C(Oc1c(-c2ccc(Cl)cc2)oc2ccccc2c1=O)c1cc(O)c(O)c(O)c1 ; strain: TYPE 2 ; cell line: HeLa ; tested at: 25 µM ; value: 28%
CC(C)CCCC(COS(=O)(=O)O)C1CCC2C3CC=C4C[C@H](O)[C@@H](OS(=O)(=O)O)CC4(C)C3CCC12C ; strain: TYPE 3 ; cell line: VERO ; tested at: 80 µg/mL ; value: 75.3%
COc1cc(/C=C/C(=O)Oc2c(-c3ccc(Cl)cc3)oc3ccccc3c2=O)ccc1OC(C)=O ; strain: TYPE 2 ; cell line: HeLa ; tested at: 1.56 µM ; value: 16%
CC12CC[C@H](O)CC1=CCC1C2CCC2(C)C(C(=O)COS(=O)(=O)O)CCC12 ; strain: TYPE 3 ; cell line: VERO ; tested at: 80 µg/mL ; value: 0%
CC(=O)c1ccc2c(c1)S(=O)(=O)c1ccccc1O2 ; strain: TYPE 3 ; cell line: BSC-1 ; tested at: 0.4 µg/mL ; value: 12%
Clc1ccc(C2=Cc3cc(Cl)ccc3OC2)cc1 ; strain: TYPE 2 ; cell line: HEP-2 ; tested at: 10 µM ; value: 42%
COc1cc(C(=O)Oc2c(-c3ccc(Cl)cc3)oc3ccccc3c2=O)cc(OC)c1O ; strain: TYPE 2 ; cell line: HeLa ; tested at: 1.56 µM ; value: 25%
CC12CC[C@H](OS(=O)(=O)O)CC1=CCC1C2CCC2(C)C(C(=O)CO)CCC12 ; strain: TYPE 3 ; cell line: VERO ; tested at: 40 µg/mL ; value: 0%
Brc1ccc(C2=Cc3cc(Br)ccc3OC2)cc1 ; strain: TYPE 2 ; cell line: HEP-2 ; tested at: 10 µM ; value: 40%
CC(=O)c1c(-c2ccc(Cl)c(Cl)c2)oc2ccccc2c1=O ; strain: TYPE 2 ; cell line: HeLa ; tested at: 25 µM ; value: 23%
CCC(=O)C(CCCCCCOc1ccc(OC)cc1Cl)C(=O)CC ; strain: MEF (TYPE 2) ; cell line: HeLa ; tested at: 0.27 µM ; value: 83%
Clc1ccc(C2=Cc3ccccc3OC2)cc1 ; strain: TYPE 2 ; cell line: HEP-2 ; tested at: 10 µM ; value: 0%

3 of the rows above, restated:

{"structure": "C/C(=N\\O)c1ccc2c(c1)Sc1ccccc1S2", "strain": "TYPE 3", "cell line": "BSC-1", "tested at": "0.4 µg/mL", "value": "18%"}
{"structure": "Brc1ccc(C2=Cc3ccccc3OC2)cc1", "strain": "IA (TYPE 2)", "cell line": "HEP-2", "tested at": "10 µM", "value": "10%"}
{"structure": "CC(O)c1ccc2c(c1)Sc1ccccc1S2", "strain": "TYPE 3", "cell line": "BSC-1", "tested at": "0.4 µg/mL", "value": "12%"}